Reference: PubChem BioAssay AID2326 (National Center for Advancing Translational Sciences (NCATS), 2010)
The entries are a selection whose mix differs from that of the whole data set. Inconclusive results are not listed. Active and inactive are the calls of the source. Calls come from the whole dose curve.

Experiment: qHTS Assay for Inhibitors of Influenza NS1 Protein Function; note: actives are rising curves; nearly all actives have a fitted effect of over 50% in size
Settings: cell-based NS1 function reporter
Potency is the fitted concentration of half-maximal effect.

Structure (SMILES) | Potency
NC(=O)Nc1ccc([As](=O)(O)O)cc1 | active: 3.98 µM
